The results in this text go back to US20170128489A1 (priority 2014, published 2017).

The test concerns the target influenza A M2 channels (A/Udorn/72, S31N mutant) (Influenza A virus, UniProt P0DOF5, S31N). It is filed as cell-based. The conditions noted are these: for EC50 / Percent Block: pH 5.3.

Regarding Zinc Pinanamine Imidazole [Pin-Imid-Zn], the “Percent Washout” value was determined as 22%, the EC50 was 113 µM and the “Percent Block” value was 39%.
In the same order, the values of “Copper pinanamine imidazole [Pin-Imid-Cu]” are 66%, 39 µM and 83%.
Turning to “Copper bispinanamine imidazole [Bis(Pin-Imid)-Cu]”, the “Percent Washout” value was determined as 8%, it took 115 µM to reach a half-maximal effect (EC50) and the “Percent Block” value stood at 45%.
